Measured values from several laboratories, pooled; numbers as filed in NIAID ChemDB.

Common to all: growth or infection tests; agent: Aspergillus niger; endpoint: zone

Neighbouring rows are from separate reports.

| structure | tested at | strain or isolate | read by | value |
|---|---|---|---|---|
| Oc1cccc2cccnc12 | 25 µg/mL |  | agar | 21 mm |
| CCCCC(CC)COC(=O)c1ccccc1C(=O)OCC(CC)CCCC | 50000 µg/mL |  | agar diffusion / agar | 1.25 mm |
| O=C1NC(=S)NC(=O)C1=Cc1cn(-c2ccccc2)nc1-c1cc2ccccc2oc1=O | 100 µg |  | agar diffusion / agar | 0 mm |
| Cc1ccc(N2NOC(=O)C2S(=O)(=O)Nc2nc(-c3ccc(Cl)cc3Cl)cs2)cc1 | 250 µg/mL | MTCC 282 | agar diffusion | 20 mm |
| C(/C=C/c1ccccc1)=NCCNCCN=C/C=C/c1ccccc1.[Cl][Hg][Cl] | 30000 µg/mL |  | agar diffusion | 28 mm |
| CC1(C)CCCC2(C)OCCC=C12 | 50000 µg/mL |  | agar diffusion / agar | 1.35 mm |
| Cc1ccc(N2NOC(=O)C2S(=O)(=O)Nc2nc3cc(C)ccc3s2)cc1 | 250 µg/mL | MTCC 282 | agar diffusion | 24 mm |
| O=C(O)c1cc(O)c(O)c(O)c1 | 50000 µg/mL |  | agar diffusion / agar | 0 mm |
| O=C1NC(=S)NC(=O)C1=Cc1cn(-c2ccccc2)nc1-c1cc2ccc3ccccc3c2oc1=O | 100 µg |  | agar diffusion / agar | 0 mm |
| CC(=O)N(c1ccccc1)c1nc(C)cc(C)n1 | 100 µg/mL |  |  | 2.7 mm |
| O=C(O)c1ccc(O)c(O)c1 | 10000 µg/mL |  | agar diffusion / agar | 0.22 mm |
| O=C1NC(=O)C(=Cc2cn(-c3ccccc3)nc2-c2cc3cc(Cl)cc(Cl)c3oc2=O)C(=O)N1 | 150 µg |  | agar diffusion / agar | 0 mm |
| O=C(O)/C=C/c1ccccc1 | 10000 µg/mL |  | agar diffusion / agar | 0.65 mm |
| C[C@@H]1[C@H](O)[C@@H](C)/C=C/C=C/CC/C=C/C=C/C=C/C=C/C(O[C@H]2O[C@H](C)[C@@H](O)[C@H](N)[C@@H]2O)CC2O[C@](O)(CC(O)C(O)CCC(O)CC(O)CC(O)CC(=O)O[C@H]1C)CC(O)C2C(=O)O | 250 µg/mL | MTCC 282 | agar diffusion | 29 mm |
| O=C1NC(=S)NC(=O)C1=Cc1cn(-c2ccccc2)nc1-c1cc2cc(Cl)ccc2oc1=O | 150 µg |  | agar diffusion / agar | 0 mm |
| Cc1ccc(N2NOC(=O)C2S(=O)(=O)Nc2nc(-c3ccc([N+](=O)[O-])cc3)cs2)cc1 | 250 µg/mL | MTCC 282 | agar diffusion | 21 mm |
| Cc1nc(Nc2ccccc2)nc(C)c1C#N | 50 µg/mL |  |  | 1.7 mm |
| C(/C=C/c1ccccc1)=NCCNCCN=C/C=C/c1ccccc1.[Br][Hg][Br] | 30000 µg/mL |  | agar diffusion | 26 mm |
| O=C1NC(=S)NC(=O)C1=Cc1cn(-c2ccccc2)nc1-c1cc2cc(Br)cc(Br)c2oc1=O | 100 µg |  | agar diffusion / agar | 0 mm |

Again, the opening 2 rows:

structure | tested at | strain or isolate | read by | value
Oc1cccc2cccnc12 | 25 µg/mL |  | agar | 21 mm
CCCCC(CC)COC(=O)c1ccccc1C(=O)OCC(CC)CCCC | 50000 µg/mL |  | agar diffusion / agar | 1.25 mm

Zone: diameter of growth inhibition. An empty or dashed field is not shown.